Experimental data as given in US20250297262A1, “REGULATION OF TYPE I IFN SIGNALING BY TARGETING A DECOY RECEPTOR” (THE REGENTS OF THE UNIVERSITY OF COLORADO A BODY CORPORATE, priority 2022, published 2025).

Tested on: delta variant of the SARS-COV2 virus (B.1.617.2)
Assay: SARS-CoV-2 viral genome replication in A549-ACE2 cells pre-treated with IFNb (FIG. 31)
Assay type: cell-based

Substance: IFNb: type I interferon beta used to treat the cell lines
- antiviral response (viral genome replication, RT-qPCR): stronger antiviral response
